Only a part is listed here, and it is no random draw. Activity calls are given as the source filed them. Rule as the data show it: active = activity above about 50% (passing the limit was not always enough); inconclusive = no clear call, values can overlap the other calls.
tested on: DNA topoisomerase I (Yersinia pestis CO92); test: Yersinia pestis topoisomerase I inhibitors, primary screen, biochemical, cleavage product accumulation, plate reader, single point (AID 504884); details: Y. pestis Topo-I cleavage product accumulation, at 10 µM, stronger effect = higher value

Row | SMILES | activity
1 | O=[N+]([O-])c1cc([N+](=O)[O-])c(Nc2nnnn2CCO)c([N+](=O)[O-])c1 | inactive: 5.54%
2 | CC1=C2N=C(C=C3N=C(C(C)=C4[N-][C@@](C)([C@@H]5N=C1[C@](C)(CCC(=O)NC[C@@H](C)OP(=O)([O-])O[C@H]1[C@@H](O)[C@@H](n6cnc7cc(C)c(C)cc76)O[C@@H]1CO)[C@H]5CC(N)=O)[C@@](C)(CC(N)=O)[C@@H]4CCC(N)=O)[C@@](C)(CC(N)=O)[C@@H]3CCC(N)=O)C(C)(C)[C@@H]2CCC(N)=O.[C-]#N.[Co+3] | inactive: -2.05%
3 | CCOC(=O)C(CC)C1=NC(C)(C)Cc2ccccc21.O=[N+]([O-])c1cc([N+](=O)[O-])c(O)c([N+](=O)[O-])c1 (stereo unspecified) | inactive: -0.211%
4 | CP(=O)(Nc1ccc(SC(F)(F)F)cc1)Oc1ccccc1 (stereo unspecified) | inactive: 25.5%
5 | CCCOc1ccc(NP(C)(=O)Oc2ccc(Cl)cc2)cc1 (stereo unspecified) | inactive: 46.8%
6 | COc1ccccc1OP(C)(=O)Nc1c(C)cccc1C (stereo unspecified) | inactive: -7.27%
7 | CN1CCCCC1COC(=O)C1(O)c2ccccc2CCc2ccccc21 (stereo unspecified) | inactive: 0.856%
8 | O=[N+]([O-])c1cc([N+](=O)[O-])c(-n2nnc3ccccc32)c([N+](=O)[O-])c1 | inactive: -2.09%
9 | Cc1nc2ccc3ccccc3c2s1.O=[N+]([O-])c1cc([N+](=O)[O-])c(O)c([N+](=O)[O-])c1 | inactive: 0.201%
10 | O=[N+]([O-])c1cc([N+](=O)[O-])c(-c2cnn(-c3ccccc3)c2)c([N+](=O)[O-])c1 | inactive: -9.54%
11 | Cc1cc(C)cc(OP(C)(=O)Nc2ccc(C)cc2C)c1 (stereo unspecified) | inactive: 13.1%
12 | CCOC(=O)c1ccc(NP(C)(=O)Oc2cc(C)cc(C)c2)cc1 (stereo unspecified) | inactive: 23.1%
13 | COc1ccccc1OP(C)(=O)Nc1cccc(Br)c1 (stereo unspecified) | inactive: 12.1%
14 | CP(=O)(Nc1cccc(Br)c1)Oc1ccccc1 (stereo unspecified) | inactive: 10.6%
15 | Cc1cc(C)cc(OP(C)(=O)Nc2ccccn2)c1 (stereo unspecified) | inactive: 4.23%
16 | Cc1ccc(C)c(NP(C)(=O)Oc2ccccc2)c1 (stereo unspecified) | inactive: 5.48%
17 | O=C(O)c1cccc(Nc2c([N+](=O)[O-])cc([N+](=O)[O-])cc2[N+](=O)[O-])c1 | inactive: 0.179%
18 | CC1=NCCc2c1[nH]c1ccccc21.O=[N+]([O-])c1cc([N+](=O)[O-])c(O)c([N+](=O)[O-])c1 | inactive: 7.47%
19 | CC(C)(C)c1ccc(OP(C)(=O)Nc2ccc(SC(F)(F)F)cc2)cc1 (stereo unspecified) | inactive: -1.86%

Row | SMILES | activity
20 | Cc1cccc(C)c1OP(C)(N)=O (stereo unspecified) | inactive: -3.22%
21 | O=[N+]([O-])c1ccc2c(c1)C=Nc1ccccc1O2 | inactive: -6.45%
22 | O=[N+]([O-])c1cc([N+](=O)[O-])c(Nc2cccnc2)c([N+](=O)[O-])c1 | inactive: -0.928%
23 | COc1ccccc1OP(C)(=O)Nc1cc(Cl)ccc1C (stereo unspecified) | inactive: 4.51%
24 | COc1ccc(OP(C)(=O)Nc2cccc(F)c2)cc1 (stereo unspecified) | inactive: -5.59%
25 | Cc1cc(C)cc(OP(C)(N)=O)c1 (stereo unspecified) | inactive: -5.93%
26 | CCOC(=O)c1ccc(NP(C)(=O)Oc2ccccc2)cc1 (stereo unspecified) | inactive: -0.442%
27 | COc1ccccc1OP(C)(=O)Nc1ccc(C)cc1 (stereo unspecified) | inactive: 11.9%
28 | Cc1ccc(NP(C)(=O)Oc2ccccc2)c(C)c1 (stereo unspecified) | inactive: -0.54%
29 | CCN(CC)CCCOC(=O)C(O)(c1ccccc1)c1ccccc1 | inactive: 7.12%
30 | CCc1ccc(OP(C)(=O)N2CCN(c3ccc([N+](=O)[O-])cc3)CC2)cc1 (stereo unspecified) | inactive: 15.3%
31 | CP(=O)(NC(=O)Nc1ccccc1)Oc1ccccc1 (stereo unspecified) | inactive: -0.257%
32 | Cc1cc(C)cc(OP(C)(=O)Nc2ccc(SC(F)(F)F)cc2)c1 (stereo unspecified) | inactive: 0.285%
33 | Cc1cccc(C)c1OP(C)(=O)Nc1ccc(SC(F)(F)F)cc1 (stereo unspecified) | inactive: -3.08%
34 | Cc1ccc(Nc2c([N+](=O)[O-])cc([N+](=O)[O-])cc2[N+](=O)[O-])cc1 | inactive: -10.3%
35 | CP(=O)(Nc1ccc(SC(F)(F)F)cc1)Oc1ccc(Cl)cc1 (stereo unspecified) | inactive: 10.2%
36 | CP(=O)(Oc1ccccc1)OC(c1ccccc1)C(F)(F)F (stereo unspecified) | inactive: -14.1%
37 | CP(=O)(Nc1ccccn1)Oc1ccc(Cl)cc1 (stereo unspecified) | inactive: 7.99%
38 | CCOP(C)(=S)SCC(=O)NC(C)C(=O)O (stereo unspecified) | inactive: -4.55%

Row | SMILES | activity
39 | CCOC(=O)c1ccc(NP(C)(=O)Oc2ccc(OC)cc2)cc1 (stereo unspecified) | inactive: 11.3%
40 | O=[N+]([O-])c1cc([N+](=O)[O-])c(O)c([N+](=O)[O-])c1.c1ccc(Oc2ccncc2)cc1 | inactive: 1.26%
41 | COc1ccccc1OP(C)(=O)Nc1ccccc1 (stereo unspecified) | inactive: 11.6%
42 | CP(=O)(Nc1ccccc1Br)Oc1ccccc1 (stereo unspecified) | inactive: 2%
43 | CP(=S)(Nn1cnnc1)Oc1ccccc1 (stereo unspecified) | inactive: -5.16%
44 | CP(=O)(OC12CC3CC(CC(C3)C1)C2)OC12CC3CC(CC(C3)C1)C2 | inactive: 14.2%
45 | CCOC(=O)c1ccc(NP(C)(=O)Oc2ccc(Cl)cc2)cc1 (stereo unspecified) | inactive: 8.04%
46 | CP(=O)(Oc1ccccc1)N1CCOC1=O (stereo unspecified) | inactive: -1.23%
47 | CCc1ccc(OP(C)(=O)Nc2cccnc2)cc1 (stereo unspecified) | inactive: -4.59%
48 | COc1ccccc1OP(C)(=O)Nc1c(C)n(C)n(-c2ccccc2)c1=O (stereo unspecified) | inactive: -0.0055%
49 | O=C(OCCCN1CCCC1)C(O)(c1ccccc1)C1CCCCC1 (stereo unspecified) | inactive: -4.22%
50 | CCN(CC)CC(O)COC(=O)C(O)(c1ccccc1)C1CCCCC1 (stereo unspecified) | inactive: -3.26%
51 | COc1ccc(OP(C)(=O)Nc2ccc(Br)cc2)cc1 (stereo unspecified) | inactive: 2.18%
52 | CN(C)C(=O)c1c([N+](=O)[O-])cc([N+](=O)[O-])cc1[N+](=O)[O-] | inactive: -14.9%
53 | CP(=O)(Nc1ccc(Cl)cc1)Oc1ccc(F)cc1 (stereo unspecified) | inactive: -10.3%
54 | CC(C)(C)c1ccc(OP(C)(=O)O)cc1 | inactive: 6.95%
55 | COc1ccccc1OP(C)(=O)Nc1ccccc1Br (stereo unspecified) | inactive: 1.36%
56 | CN(C)CCOC(=O)C(O)(c1ccccc1)C1CCCC1 (stereo unspecified) | inactive: 5.26%

From PubChem BioAssay AID504884 (Broad Institute, 2011)
